Paper PMC9658817, “Design, Synthesis, and Mechanistic Study of 2-Pyridone-Bearing Phenylalanine Derivatives as Novel HIV Capsid Modulators” (Molecules, 2022)

How the values were obtained:
HIV-2 ROD = assay: Anti-HIV-2 activity in MT-4 cells (MTT assay); assay type: cell-based; conditions: selectivity index, ratio of CC50/EC50
Method: (§1) The antiviral activities and cytotoxicities of the target compounds were tested using MT-4 cells infected by HIV-1 IIIB or HIV-2 ROD. […] PF74 was utilized as the control drug in this assay.

HIV-1 IIIB = assay: Anti-HIV-1 activity in MT-4 cells (MTT assay); assay type: cell-based; conditions: selectivity index, ratio of CC50/EC50
Method: as §1

Row | Compound | SI HIV-2 (HIV-2 ROD) | SI HIV-1 (HIV-1 IIIB)
1 | COC(=O)c1ccc(C(=O)Nc2ccn(CC(=O)N[C@@H](Cc3ccccc3)C(=O)N(C)c3ccc(OC)cc3)c(=O)c2)cc1 [TD-1i, methyl (S)-4-((1-(2-((1-((4-methoxyphenyl)(methyl)amino)-1-oxo-3-phenylpropan-2-yl)amino)-2-oxoethyl)-2-oxo-1,2-dihydropyridin-4-yl)carbamoyl)benzoate] | 6.31 | 5.04
2 | COc1ccc(N(C)C(=O)[C@H](Cc2ccccc2)NC(=O)Cn2ccc(NC(=O)c3ccc(C#N)cc3)cc2=O)cc1 [TD-1j, (S)-4-cyano-N-(1-(2-((1-((4-methoxyphenyl)(methyl)amino)-1-oxo-3-phenylpropan-2-yl)amino)-2-oxoethyl)-2-oxo-1,2-dihydropyridin-4-yl)benzamide] | 7.69 | 8.18
3 | COc1ccc(N(C)C(=O)[C@H](Cc2ccccc2)NC(=O)Cn2ccc(NC(=O)c3ccccc3)cc2=O)cc1 [TD-1a, (S)-N-(1-(2-((1-((4-methoxyphenyl)(methyl)amino)-1-oxo-3-phenylpropan-2-yl)amino)-2-oxoethyl)-2-oxo-1,2-dihydropyridin-4-yl)benzamide] | 17.81 | 5.15
4 | COc1ccc(N(C)C(=O)[C@H](Cc2ccccc2)NC(=O)Cn2ccc(NC(=O)c3ccccc3F)cc2=O)cc1 [TD-1d, (S)-2-fluoro-N-(1-(2-((1-((4-methoxyphenyl)(methyl)amino)-1-oxo-3-phenylpropan-2-yl)amino)-2-oxoethyl)-2-oxo-1,2-dihydropyridin-4-yl)benzamide] | 10.28 | 4.55
5 | COc1ccc(C(=O)Nc2ccn(CC(=O)N[C@@H](Cc3ccccc3)C(=O)N(C)c3ccc(OC)cc3)c(=O)c2)cc1 [TD-1h, (S)-4-methoxy-N-(1-(2-((1-((4-methoxyphenyl)(methyl)amino)-1-oxo-3-phenylpropan-2-yl)amino)-2-oxoethyl)-2-oxo-1,2-dihydropyridin-4-yl)benzamide] | 4.98 | 1.79
6 | COc1ccc(N(C)C(=O)[C@H](Cc2ccccc2)NC(=O)Cn2ccc(N)cc2=O)cc1 [TC-2, (S)-2-(2-(4-amino-2-oxopyridin-1(2H)-yl)acetamido)-N-(4-methoxyphenyl)-N-methyl-3-phenylpropanamide] | 13.24 | 8.98
7 | COc1ccc(N(C)C(=O)[C@H](Cc2ccccc2)NC(=O)Cn2ccc(NC(=O)c3ccc(C)cc3)cc2=O)cc1 [TD-1g, (S)-N-(1-(2-((1-((4-methoxyphenyl)(methyl)amino)-1-oxo-3-phenylpropan-2-yl)amino)-2-oxoethyl)-2-oxo-1,2-dihydropyridin-4-yl)-4-methylbenzamide] | 2.85 | 2.28
8 | COc1ccc(N(C)C(=O)[C@H](Cc2ccccc2)NC(=O)Cn2ccc(NC(=O)c3ccc(F)cc3)cc2=O)cc1 [TD-1b, (S)-4-fluoro-N-(1-(2-((1-((4-methoxyphenyl)(methyl)amino)-1-oxo-3-phenylpropan-2-yl)amino)-2-oxoethyl)-2-oxo-1,2-dihydropyridin-4-yl)benzamide] | 2.15 | 
9 | Cc1[nH]c2ccccc2c1CC(=O)NC(Cc1ccccc1)C(=O)N(C)c1ccccc1 (stereo not shown) [PF74, reference compound] | >51.00 | >271.99
10 | COc1ccc(N(C)C(=O)[C@H](Cc2ccccc2)NC(=O)Cn2ccc(NC(=O)c3cccc(F)c3)cc2=O)cc1 [TD-1c, (S)-3-fluoro-N-(1-(2-((1-((4-methoxyphenyl)(methyl)amino)-1-oxo-3-phenylpropan-2-yl)amino)-2-oxoethyl)-2-oxo-1,2-dihydropyridin-4-yl)benzamide] | 9.36 | 3.26
11 | COc1ccc(N(C)C(=O)[C@H](Cc2cc(F)cc(F)c2)NC(=O)Cn2ccc(N)cc2=O)cc1 [FTC-2, (S)-2-(2-(4-amino-2-oxopyridin-1(2H)-yl)acetamido)-3-(3,5-difluorophenyl)-N-(4-methoxyphenyl)-N-methylpropanamide] | > 17.08 | > 49.57
12 | COc1ccc(N(C)C(=O)[C@H](Cc2ccccc2)NC(=O)Cn2ccc(NC(=O)c3ccc(N)cc3)cc2=O)cc1 [TD-1m, (S)-4-amino-N-(1-(2-((1-((4-methoxyphenyl)(methyl)amino)-1-oxo-3-phenylpropan-2-yl)amino)-2-oxoethyl)-2-oxo-1,2-dihydropyridin-4-yl)benzamide] | 11.04 | 
